Experimental data reported in patent publication US20250026813A1, “Antibodies against sars-cov-2 and uses thereof” (published 2025).

Experiments:
[1] = target: SARS-CoV-2 spike protein of the WA-1 strain live virus (carrying D614G) (SARS-CoV-2, UniProt P0DTC2 14-1273); test: cell-based or functional assay
[2] = target: SARS-CoV-2 spike trimer protein (wild type), in the envelope of lentiviral pseudovirus particles (SARS-CoV-2, UniProt P0DTC2 14-1273); test: cell-based or functional assay

Binder	Live virus WA-1 strain IC50 [1]	Fold change relative to SAD S35 antibody [2]	pseudovirus neutralisation IC50 [2]
IMPI-042 (antibody, V domains shown) VH: EVQLVESGGGLIQPGGSLRLSCAASGLTVSSNYMSWVRQAPGKGLEWVSIIYSGGSTYYADSVKGRFTISRDNSKNTLYLQMNSLRAEDTAVYYCARLGGYYYYGMDVWGQGTTVTVSS VL: DIQMTQSPSSLSASVGERVTITCQASQDIRNYLNWYQKKPGKAPKLLIYDSSNLETGVPSRFSGGGSGTDFTFTISSLQPEDIATYYCQQYDNLPITFGQGTRLEIK [IMPI-042, listing 1 of 2 here]	12 ng/mL	–	–
IMPI-054 (antibody, V domains shown) VH: EVQLVESGGGLIQPGGSLRLSCAASGLTVSSNYMSWVRQAPGKGLEWVSIIYSGGSTYYADSVKGRFTISRDNSKNTLYLQMNSLRAEDTAVYYCARLGGYYYYGMDVWGQGTTVTVSS VL: DIQMTQSPSSLSASVGERVTITCQASQDIRNYLNWYQKKPGKAPKLLIYDSSNLETGVPSRFSGSGSGTDFTFTISSLQPEDIATYYCQQYDNLPITFGQGTRLEIK	–	47.7 fold	94.5 pM and 0.0142 ug/ml
IMPI-042 (antibody, V domains shown) VH: EVQLVESGGGLIQPGGSLRLSCAASGLTVSSNYMSWVRQAPGKGLEWVSIIYSGGSTYYADSVKGRFTISRDNSKNTLYLQMNSLRAEDTAVYYCARLGGYYYYGMDVWGQGTTVTVSS VL: DIQMTQSPSSLSASVGERVTITCQASQDIRNYLNWYQKKPGKAPKLLIYDSSNLETGVPSRFSGGGSGTDFTFTISSLQPEDIATYYCQQYDNLPITFGQGTRLEIK [IMPI-042, listing 2 of 2 here]	–	2.77 fold	1440 pM and 0.216 ug/ml
IMPI-017 (antibody, V domains shown) VH: EVQLVESGGGLIQPGGSLRLSCAAAGLTVSSNYMNWVRQVPGKGLEWVSVIYSGGSTYYADSVKGRFTISRDNSKNTLYLQMNSLRAEDTAVYYCARDLGTLGMDVWGQGTTVTVSS VL: DIQLTQSPSFLSASVGDRVTITCWASQGISTYLAWYQQKPGKAPKLLIYAASTLQSGVPSRFSGSGSGTEFTLTISSLQPEDFATYYCQQLNSYLPTFGQGTKVEIK [IMPI-017, listing 1 of 2 here]	–	502 fold	9 pM and 0.0013 ug/ml
IMPI-029 (antibody, V domains shown) VH: EVQLVESGGGLIQPGGSLRLSCAASGVTVSSNYMNWVRQAPGKGLEWVSVIYSGGSTYYADSVKGRFTISRDNSKNTLFLQMNSLRAEDSAVYYCARDLGPYGVDVWGQGTTVTVSS VL: DIQLTQSPSFLSASVGDRVTITCWASQGISSYLAWYQQKPGKAPKLLIYAASTLQSGVPSRFSGSGSGTEFTLTISSLQPEDFATYYCQELNSYPLTFGQGTRLEIK [IMPI-029, listing 1 of 2 here]	–	104 fold	43.3 pM and 0.0065 ug/ml
IMPI-017 (antibody, V domains shown) VH: EVQLVESGGGLIQPGGSLRLSCAAAGLTVSSNYMNWVRQVPGKGLEWVSVIYSGGSTYYADSVKGRFTISRDNSKNTLYLQMNSLRAEDTAVYYCARDLGTLGMDVWGQGTTVTVSS VL: DIQLTQSPSFLSASVGDRVTITCWASQGISTYLAWYQQKPGKAPKLLIYAASTLQSGVPSRFSGSGSGTEFTLTISSLQPEDFATYYCQQLNSYLPTFGQGTKVEIK [IMPI-017, listing 2 of 2 here]	10 ng/mL	–	–
IMPI-021 (antibody, V domains shown) VH: EVQLVESGGGLIQPGGSLRLSCAASGVTVSSNYMSWVRQAPGKGLEWVSVIYSGGSTFYADSVKGRFTISRDNSKNTLYLQMNSLRAEDTAVYYCARDLSYYGMDVWGQGTTVTVSS VL: DIQLTQSPSFLSASVGDRVTITCWASQGISSYLAWYQQKPGKAPKLLIYAASTLQSGVPSKFSGSGSGTEFTLTISSLQPEDFATYYCQQLNSYPCSFGQGTKLEIK [IMPI-021, listing 1 of 2 here]	–	24.3 fold	164 pM and 0.0246 ug/ml
IMPI-005 (antibody, V domains shown) VH: EVQLVESGGGLIQPGGSLRLSCAASGFTVSSNYMNWVRQAPGKGLEWVSVIYSGGSTYYADSVKGRFTISRDNSKNTLFLQMNSLRAEDSAVYYCARDLGPYGVDVWGQGTTVTVSS VL: DIQLTQSPSFLSASVGDRVTITCWASQGISSYLAWYQQKPGKAPKLLIYAASTLQSGVPSRFSGSGSGTEFTLTISSLQPEDFATYYCQELNSYPLTFGQGTRLEIK [IMPI-005, listing 1 of 2 here]	–	–	530 pM and 0.0796 ug/ml
IMPI-005 (antibody, V domains shown) VH: EVQLVESGGGLIQPGGSLRLSCAASGFTVSSNYMNWVRQAPGKGLEWVSVIYSGGSTYYADSVKGRFTISRDNSKNTLFLQMNSLRAEDSAVYYCARDLGPYGVDVWGQGTTVTVSS VL: DIQLTQSPSFLSASVGDRVTITCWASQGISSYLAWYQQKPGKAPKLLIYAASTLQSGVPSRFSGSGSGTEFTLTISSLQPEDFATYYCQELNSYPLTFGQGTRLEIK [IMPI-005, listing 2 of 2 here]	11 ng/mL	–	–
IMPI-060 (antibody, V domains shown) VH: EVQLVESGGGLIQPGGSLRLSCAASGVTVSSNYMSWVRQAPGKGLEWVSVIYSGGSTFYADSVKGRFTISRDNSKNTLYLQMNSLRAEDTAVYYCARDLSYYGMDVWGQGTTVTVSS VL: DIQLTQSPSFLSASVGDRVTITCWASQGISSYLAWYQQKPGKAPKLLIYAASTLQSGVPSKFSGSGSGTEFTLTISSLQPEDFATYYCQQLNSYPSSFGQGTKLEIK	–	0.73 fold	6170 pM and 0.925 ug/ml
IMPI-047 (antibody, V domains shown) VH: EVQLVESGGGLIQPGGSLRLSCAASGFTVSSNYMNWVRQAPGKGLEWVSVIYSGGSTYYADSVKGRFTISRDNSKNTLYLQMNSLRTEDTAVYYCARDLVAYGMDVWGQGTTVTVSS VL: DIQLTQSPSFLSASVGDRVTITCWASQGISSYLAWYQQKPGKAPKVLIYAASTLQSGVPSRFSGSGSGTEFTLTISSLQPEDFATYYCQLLNSNPLTFGGGTKVEIK [IMPI-047, listing 1 of 2 here]	–	51.7 fold	87.2 pM and 0.0131 ug/ml
IMPI-029 (antibody, V domains shown) VH: EVQLVESGGGLIQPGGSLRLSCAASGVTVSSNYMNWVRQAPGKGLEWVSVIYSGGSTYYADSVKGRFTISRDNSKNTLFLQMNSLRAEDSAVYYCARDLGPYGVDVWGQGTTVTVSS VL: DIQLTQSPSFLSASVGDRVTITCWASQGISSYLAWYQQKPGKAPKLLIYAASTLQSGVPSRFSGSGSGTEFTLTISSLQPEDFATYYCQELNSYPLTFGQGTRLEIK [IMPI-029, listing 2 of 2 here]	2 ng/mL	–	–
IMPI-047 (antibody, V domains shown) VH: EVQLVESGGGLIQPGGSLRLSCAASGFTVSSNYMNWVRQAPGKGLEWVSVIYSGGSTYYADSVKGRFTISRDNSKNTLYLQMNSLRTEDTAVYYCARDLVAYGMDVWGQGTTVTVSS VL: DIQLTQSPSFLSASVGDRVTITCWASQGISSYLAWYQQKPGKAPKVLIYAASTLQSGVPSRFSGSGSGTEFTLTISSLQPEDFATYYCQLLNSNPLTFGGGTKVEIK [IMPI-047, listing 2 of 2 here]	12 ng/mL	–	–
IMPI-021 (antibody, V domains shown) VH: EVQLVESGGGLIQPGGSLRLSCAASGVTVSSNYMSWVRQAPGKGLEWVSVIYSGGSTFYADSVKGRFTISRDNSKNTLYLQMNSLRAEDTAVYYCARDLSYYGMDVWGQGTTVTVSS VL: DIQLTQSPSFLSASVGDRVTITCWASQGISSYLAWYQQKPGKAPKLLIYAASTLQSGVPSKFSGSGSGTEFTLTISSLQPEDFATYYCQQLNSYPCSFGQGTKLEIK [IMPI-021, listing 2 of 2 here]	3 ng/mL	–	–
IMPI-032 (antibody, V domains shown) VH: QVQLQESGPGLVKPSGTLSLTCAVSGGSISSNKWWSWVRQPPGKGLEWIGEIDHSGSTMYNPSLKSRVTISVDKSKNQFSLKLNSVTAADTAVYYCTGEGYNWNYWGQGTRVTVSS VL: DVVMTQSPLSLPVTLGQTASISCRSSQSLLYTDGNTYLSWFQQRPGQSPRRLIYKVSKWESGVPDRFSGSGSGTDFTLKISRVEAEDVGIYYCMQGTHWPLTFGGGTKVEIK	–	0.27 fold	14900 pM and 2.23 ug/ml
IMPI-063 (antibody, V domains shown) VH: EVQLVESGGGVVRPGGSLRLSCAASGFTFDDYGMSWVRQAPGKGLEWVSGIYWNGGSTGYADSVKGRFTISRDNAKNSLYLQMNSLRAEDMALYYCARGVGATDYWGQGTLVTVSS VL: EIVLTQSPGTLSLSSGERATLACRASESVRGSFLAWYQQKPGQAPRLLIYGASRRATGIPDRFSGSGSGTDFTLTISRLEPEDFAVYYCQQYGNSPMCSFGQGTKLEIK	–	0.35 fold	9980 pM and 1.5 ug/ml
IMPI-055 (antibody, V domains shown) VH: QVQLVQSGAEVKKPGASVKVSCKASGYTFTSYDINWVRQATGQGLEWMGWMNPNSGNTGYAQKFQGRVTMTRDTSINTAYMELSSLRSEDTAVYFCARGGRYCSDVTCYSGEPFDYWGQGTLVTVSS VL: EIMLTQSPDFQSVTPKEKVTITCRASQSIGSSLHWYQQKPDQSPKLLIKFASQSISGVPSRFSGSGSGTDFTLTINSLEAEDAAAYYCHQSSSLPHTFGPGTKVEIK	–	125 fold	36.2 pM and 0.0054 ug/ml
IMPI-027 (antibody, V domains shown) VH: QVQLQESGPGLVKPSQTLSLTCTVSGGSISSYGYYWNWIRQHPGKGLEWIGYIYYSGSTYYNPSLKSRVTISVDTSKNQLSLRLNSVSAADTAVYYCARDFGGNSNYFDYWGQGTLVTVSS VL: AIQLTQSPSSLSASVGDRVTITCRTSQGISSALAWYQQKPGKAPKLLIYDASSLESGVPSRFSGSGSGTDFTLTISSLQPEDFATYYCQQFNSYPLTFGGGTKVEIK	–	0.13 fold	31600 pM and 4.75 ug/ml
IMPI-024 (antibody, V domains shown) VH: EVQLVQSGAEVKKPGESLKISCKGSGYSFTSYWIGWVRQMPGKGLEWMGIIYPGDSDTRYSPSFQGQVTISADKSISTAYLQWSSLKASDTAMYYCVRSYNWNYFDYWGQGTLVTVSS VL: AIQLTQSPSSLSASVGDRVTITCRASQGISSGLAWYQQKAGKAPKLLIYDVSSLESGVPSRFSGSGSGTDFTLTISSLQPEDFATYYCQQFLSYPWTFGQGTKVEIK	–	0.58 fold	6850 pM and 1.03 ug/ml
IMPI-059 (antibody, V domains shown) VH: EVQLVESGGGLIQPGGSLRLSCAASGFTVSSIYMSWVRQAPGKGLEWVSIIYSRGSTDYADSVKGRFTISRDISKNTLYLQMNSLRAEDTAVYYCARDGTMVRGVHAFDIWGQGTMVTVSS VL: DIQMTQSPPSLSASIGDRVTITCQASQDISNYLNWYQQKPGKAPKLLIYDASNLETGVPSRFSGSGSGTDFTLTISNLQPEDIVTYYCQQYDNLPSSFGQGTKLEIK	–	1410 fold	0.0005 ug/ml and 3.2 pM

“And” between values parts separate entries of the source, which are not always exact repeats. Identical values can stand only once.
